According to patent US20220235118A1:

Target: SARS-CoV-2 Spike receptor binding domain (RBD), reference (USA/WA_CDC-WA1/2020) (SARS-CoV-2) (UniProt P0DTC2)
Experiment: cell-based or functional assay

Work on Anti-RSV (antibody) yielded a Phagocytosis score at 0.6 nM of 1.38.
